Literature values in patent publication US8093046B2, “CVN-12p1: a recombinant allosteric lectin antagonist of HIV-1 envelope gp120 interactions” (Philadelphia Health and Education Corporation d/b/c Drexel …, priority 2006, dated 2012).

Experiments:
[1] = target: monomeric YU2 gp120 / sCD4 (Human immunodeficiency virus type 1 group M subtype B, UniProt P35961); settings: SPR analysis; read-out: IC50, inhibition of binding of monomeric YU2 gp120 to sCD4; cited from earlier work
[2] = target: monomeric YU2 gp120 / 17b (Human immunodeficiency virus type 1 group M subtype B, UniProt P35961); settings: SPR analysis; read-out: IC50, inhibition of binding of monomeric YU2 gp120 to 17b; cited from earlier work
[3] = target: T1, YU2 gp120 / mAb F105 (Human immunodeficiency virus type 1 group M subtype B, UniProt P35961); settings: from literature; cited from earlier work
T1 construct: made in house; host or cells: gp120: Drosophila S2 cells

[4] = target: YU2 gp120 (Human immunodeficiency virus type 1 group M subtype B, UniProt P35961); settings: read-out: Equilibrium dissociation constant KD for binding to YU2; cited from earlier work

Sequence: RINNIPWSEAMM [12p1]
- IC50 [1]: 1100 nM
- IC50 [2]: 1600 nM
- Effect on F105 binding to gp120 [3]: inhibits at μM concentrations
- Kd [4]: 3600 nM
